Laboratory results as given in paper PMC11858715 (Molecules, 2025).
No end group written: not given here.

Test: Fluorescence spectra of peptide solutions in DMSO
Format: physicochemical
Details: 10^−5 mol L^−1 in 100% DMSO; 25 °C; excitation 280 nm; mean of three measurements

Going from GMMILG [S1] to SHHYEP [S1A1, Ser-His-His-Tyr-Glu-Pro], the “wavelength of fluorescence maximum λmax” value falls from 345 nm to 320 nm.

First: SHHYSP [S1A2, Ser-His-His-Tyr-Ser-Pro]
Second: YIYRNYPDF [S2]
The “wavelength of fluorescence maximum λmax” value of the first is higher: 319 nm for the first, 317 nm for the second.
